Measurements: the supplement of paper PMC9931576
Human monoclonal antibodies against the spike receptor-binding domain (heavy:light variable regions). IC50 against pseudoviruses bearing the spike of naturally observed variants; lower = stronger; >10 µg/ml means not reached at the top dose. No active / inactive call. The stated detection limit is 0.0005 µg/ml; values near or below 0.001 µg/ml lie at the floor of the assay.

B1: BD56-444 (protein)
chain 1: EVQLVESGGDLVQPGRSLRLSCAASGFTFDDYDMHWVRQAPGKGLEWVSGITWNSGTIGYADSVKGRFIISRDNAKNSLYLQMRSLRVEDTALYYCVKDILGRGSKWYDPEDYGMDVWGQGTTVTVSS
chain 2: SYVLTQPPSVSVAPGQTASITCGGNNIGRKSVHWYQQKPGRAPVLVVYDDRDRPSGIPERFSGANSGNTATLTISRVEAGDEADYYCQVWDTTTNNVVFGGGTKLTVL
B2: BD56-445 (protein)
chain 1: QVQLQESGPGLVKPSETLSLTCTVSGASISNYYWNWIRQSPGKGLEWIGCMYYGGKINYNPSLKSRATMSKDTSKNQFSLKLTSVTAADTAVYYCARGGPMIGVVADDAFDIWGQGTMVTVSS
chain 2: DIQMTQSPSSLSASVGDRVTITCRASQSIGNYLNWYQQKPGKAPKLLIYAASSLQSGVPSRFSGSGSGTDFTLTISSLQREDFATYYCQQSYSTLQITFGQGTRLEIK
B3: BD56-447 (protein)
chain 1: QMQLVQSGPEVKKPGTSVKVSCKASGFTFSSSAVQWVRQSRGQRLEWIGWIVVGSGNTEYAQKFQERVSITRDMSTNTAYMEVTSLRSEDTAVYYCAAPYCSTTICDDGFDIWGQGTMVTVSS
chain 2: EIVLTQSPGTLSLSPGERATLSCRASQNVRSSYFAWYQQKPGQAPRLLIYVASSRATGIPDRFSGSGSGTDFTLTISRLEPEDFAVYYCQQYDKSPWTFGQGTKVEVK
B4: BD56-454 (protein)
chain 1: QVQLVQSGAEVKKPGASVRVSCKASGYTFSDYGITWVRRAPGQGLEWMGWISAHNGDTNYAQQFEGRVTLTTDTSTSTAYMELRSLRSDDTAVYYCARDDYYSSGTYYKVVGLTNNWFDPWGQGTLVTVSS
chain 2: DIQMTQSPSSLSASVGDRVTITCRASQTISSFLNWYQQQSGKAPKLLIYAASTLQSGVPSRFSGSGSGTEFTFTISGLQPEDFATYHCQQSYSYPPTFGGGTKVEIK
B5: BD56-467 (protein)
chain 1: QVQLVQSGAEVKKPGSSVKVSCKASGGTVSSYTISWVRQAPGQGLEWMGRIIPILNITNYAQNFQGRVTITADKPTSTAYMELSSLRSEDTAVYYCAKEDTGYCTSGVCDDAFDYWGQGTLVTVSS
chain 2: DIQMTQSPSSLSASVGDRVTITCRASQSITNYLNWYQQKPGKAPKLLIYAASTLQSGVPSRFSGSGSGTEFALTISSLQPEDFATFYCQQSYSTLSLTFGGGTKVEI
B6: BD56-468 (protein)
chain 1: QVQLVESGGGVVQPGRSLRLSCAASGFTFSIHGMHWVRQAPGKGLEWVTVIWFDGSKKYYADSVKGRFTISRDNSKNMLYLQMDSLRAEDTAVYYCARDAQDDDGGAHDAFDFWGQGTMVTVSS
chain 2: DIQMTQSPSSLSASVGDRVTITCRSSQSISTFLNWYQQKPGNAPKLLIFATSSLQSGVPSRFSGSGSGTDFTLTIRSLQPEDFATYYCQQTYSTLGYTFGQGTKLEIK

target: SARS-CoV-2 Omicron BA.1 spike pseudovirus; assay: pseudovirus neutralization IC50; higher = weaker neutralization
Method: (§1)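 Single-round VSV luciferase pseudovirus mixed with antibody dilutions for 1 h and put on Huh-7 cells for about a day; IC50 from the dose curve.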

Row | Binder | pseudovirus neutralization IC50 [µg/mL]
1 | B1 | 0.0405
2 | B2 | 0.205
3 | B3 | 0.0177
4 | B4 | 0.0103
5 | B5 | 0.0492
6 | B6 | 0.101

target: SARS-CoV-2 Omicron BA.2 spike pseudovirus; assay: as above
Method: as §1

Row | Binder | pseudovirus neutralization IC50 [µg/mL]
7 | B1 | 0.0379
8 | B2 | 0.0506
9 | B3 | 0.0178
10 | B4 | 0.00274
11 | B5 | 0.00262
12 | B6 | 0.0203

target: SARS-CoV-2 Omicron BA.2.75 spike pseudovirus; assay: as above
Method: as §1

Row | Binder | pseudovirus neutralization IC50 [µg/mL]
13 | B1 | 0.082
14 | B2 | 0.274
15 | B3 | 0.00149
16 | B4 | 0.00687
17 | B5 | 0.0041
18 | B6 | 0.147

target: SARS-CoV-2 Omicron BA.5 spike pseudovirus; assay: as above
Method: as §1

Row | Binder | pseudovirus neutralization IC50 [µg/mL]
19 | B1 | 2.42
20 | B2 | 0.448
21 | B3 | 1.84
22 | B4 | 2.29
23 | B5 | > 10
24 | B6 | > 10

target: SARS-CoV-2 Omicron BQ.1.1 spike pseudovirus; assay: as above
Method: as §1

Row | Binder | pseudovirus neutralization IC50 [µg/mL]
25 | B1 | > 10
26 | B2 | > 10
27 | B3 | 1.48
28 | B4 | > 10
29 | B5 | > 10
30 | B6 | > 10

target: SARS-CoV-2 Omicron XBB spike pseudovirus; assay: as above
Method: as §1

Row | Binder | pseudovirus neutralization IC50 [µg/mL]
31 | B1 | 3.28
32 | B2 | > 10
33 | B3 | > 10
34 | B4 | > 10
35 | B5 | > 10
36 | B6 | > 10

target: SARS-CoV-2 early D614G spike pseudovirus; assay: as above
Method: as §1

Row | Binder | pseudovirus neutralization IC50 [µg/mL]
37 | B1 | 0.00534
38 | B2 | 0.00572
39 | B3 | 0.00162
40 | B4 | 0.00357
41 | B5 | 0.0028
42 | B6 | 0.0271
